Molecular target: human TSG101 UEV domain (UEV-WT) (Homo sapiens, UniProt Q99816)
Conditions: ITC200, 28°C, 20mM sodium phosphate pH 7.20, 150mM NaCl, 5% glycerol, cell 300-600 μM UEV, peptide 4 mM or 6.5 mM, 18 injections of 2.1 μl, one-site model, SD of three measurements, N.B. = no binding

Amino acid sequences for entries named in this document (tags omitted). Residues count along the entry.
UniProt Q99816, 2-145: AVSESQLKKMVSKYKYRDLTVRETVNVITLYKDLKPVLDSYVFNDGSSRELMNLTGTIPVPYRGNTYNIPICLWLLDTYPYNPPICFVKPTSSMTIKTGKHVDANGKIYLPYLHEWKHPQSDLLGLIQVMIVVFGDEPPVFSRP

With LAPSDPPYP [Vps27-PSDP] the “Kd (equilibrium dissociation constant, ITC)” value was “N.B”.
